Record: PubChem BioAssay AID1224833 (University of Georgia, 2016)

Screen: 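Host factors restraining rotavirus as candidate antiviral genes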 (primary screen)
Cells: monkey MA104 kidney cells
Reagents: siRNA pool against human genes, 50 nM
Time to read-out: 48 h knock-down before infection; read 24 h after infection
Conditions: infection with rotavirus strain RV3 two days after transfection; infectious dose for this stage not given
Detection: 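z-score of rotavirus antigen signal per well, from a fluorescent immunoassay, relative to non-targeting control wells on the same plate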
Reading the numbers: z-score vs non-targeting control: higher = more rotavirus replication than with non-targeting control
Call rule: In these data the active calls have z-score vs non-targeting control at about -1 or lower, or at about 1 or higher
Meaning of the calls: active = z-score beyond 1 either way; inactive = z-score within 1 of zero
The deposit covers about 12,000 reagents; shown is an unselected part. About 5,600 of them (46%) were called active. 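Active calls cover z-scores past 1 in both directions, so they include lowered as well as raised rotavirus replication.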 Entries without a mark were called inactive. Reagent sequences are not shown.

| gene | z-score vs non-targeting control |
| --- | --- |
| SPACA3 (sperm acrosome associated 3) | -1.76 (active) |
| TAS2R5 (taste 2 receptor member 5) | -1.13 (active) |
| DNAL1 (dynein axonemal light chain 1) | 0.229 |
| CRISPLD2 (cysteine rich secretory protein LCCL domain containing 2) | -0.563 |
| TCEAL6 (transcription elongation factor A like 6) | -0.375 |
| FAS (Fas cell surface death receptor) | 2.37 (active) |
| RBP3 (retinol binding protein 3) | 2.88 (active) |
| MAFF (MAF bZIP transcription factor F) | -0.746 |
| ECT2 (epithelial cell transforming 2) | -1.06 (active) |
| TMEM252 (transmembrane protein 252) | -1.72 (active) |
| ARHGEF7 (Rho guanine nucleotide exchange factor 7) | 1.08 (active) |
| TBL1X (transducin beta like 1 X-linked) | 0.0363 |
| DCDC1 (doublecortin domain containing 1) | 0.0881 |
| COG3 (component of oligomeric golgi complex 3) | 0.606 |
| COL9A2 (collagen type IX alpha 2 chain) | -0.716 |
| ZNF839 (zinc finger protein 839) | -0.871 |
| TLE3 (TLE family member 3, transcriptional corepressor) | 1.59 (active) |
| ZNF785 (zinc finger protein 785) | -0.517 |
| WDR35 (WD repeat domain 35) | -0.41 |
| SLC6A19 | 0.635 |
| TSGA10 (testis specific 10) | 0.387 |
| ZNF521 (zinc finger protein 521) | 0.69 |
| TNIP1 (TNFAIP3 interacting protein 1) | 0.756 |

The list goes on; the last 3 above are carried over.
| gene | z-score vs non-targeting control |
| --- | --- |
| TSGA10 (testis specific 10) | 0.387 |
| ZNF521 (zinc finger protein 521) | 0.69 |
| TNIP1 (TNFAIP3 interacting protein 1) | 0.756 |
| WSCD1 (WSC domain sialate O sulfotransferase 1) | 0.968 |
| DRC7 (dynein regulatory complex subunit 7) | 0.455 |
| GPX7 (glutathione peroxidase 7) | -0.737 |
| CD99L2 (CD99 molecule like 2) | 0.851 |
| PRB1 (proline rich protein BstNI subfamily 1) | -0.689 |
| FAXC | 0.655 |
| SPA17 (sperm autoantigenic protein 17) | -0.97 |
| RCOR2 (REST corepressor 2) | -1.05 (active) |
| CDK2AP1 (cyclin dependent kinase 2 associated protein 1) | 1.13 (active) |
| COL15A1 (collagen type XV alpha 1 chain) | 0.296 |
| WDR5 (WD repeat domain 5) | -0.495 |
| SRFBP1 (serum response factor binding protein 1) | 1.19 (active) |
| CDO1 (cysteine dioxygenase type 1) | 0.823 |
| SCLT1 (sodium channel and clathrin linker 1) | 1.87 (active) |
| NPY5R (neuropeptide Y receptor Y5) | -0.759 |
| MAP2 (microtubule associated protein 2) | -1.57 (active) |
| SLC22A3 | -0.658 |
| ANP32A (acidic nuclear phosphoprotein 32 family member A) | -0.883 |
| CLPX | 1.96 (active) |
| RALB (RAS like proto-oncogene B) | 0.733 |
| MSN (moesin) | 0.306 |
| NEFH (neurofilament heavy chain) | -2.57 (active) |
